Measured values published in publication PMC11748689, “Pharmacological and structural understanding of the Trypanosoma cruzi proteasome provides key insights for developing site-specific inhibitors” (The Journal of Biological Chemistry, 2024).

Amino acid sequences for entries named in this document (tags omitted). A change or cut given only in a name is not applied to a line headed by its entry. Residues count along the entry.
UniProt V5BU39, 111-311 limits assumed: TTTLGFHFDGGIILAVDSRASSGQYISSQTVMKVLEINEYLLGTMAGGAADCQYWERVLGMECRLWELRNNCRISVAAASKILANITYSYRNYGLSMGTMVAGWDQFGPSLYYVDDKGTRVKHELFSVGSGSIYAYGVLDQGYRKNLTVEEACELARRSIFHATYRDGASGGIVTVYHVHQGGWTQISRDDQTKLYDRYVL
UniProt V5C017, 1-206: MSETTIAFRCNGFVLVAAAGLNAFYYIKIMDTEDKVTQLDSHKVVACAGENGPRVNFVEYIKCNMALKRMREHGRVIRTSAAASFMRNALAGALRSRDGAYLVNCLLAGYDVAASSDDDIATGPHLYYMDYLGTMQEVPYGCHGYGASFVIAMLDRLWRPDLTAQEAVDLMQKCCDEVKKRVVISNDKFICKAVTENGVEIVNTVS
UniProt V5C017, 1-206 F24L/I29M: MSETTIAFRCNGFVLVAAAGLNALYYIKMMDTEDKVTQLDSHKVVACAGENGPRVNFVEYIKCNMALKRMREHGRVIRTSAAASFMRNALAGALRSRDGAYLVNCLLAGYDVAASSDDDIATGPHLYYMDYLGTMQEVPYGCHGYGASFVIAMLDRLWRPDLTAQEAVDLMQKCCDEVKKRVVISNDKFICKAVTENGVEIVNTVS
UniProt V5BCU3, 67-292 limits assumed: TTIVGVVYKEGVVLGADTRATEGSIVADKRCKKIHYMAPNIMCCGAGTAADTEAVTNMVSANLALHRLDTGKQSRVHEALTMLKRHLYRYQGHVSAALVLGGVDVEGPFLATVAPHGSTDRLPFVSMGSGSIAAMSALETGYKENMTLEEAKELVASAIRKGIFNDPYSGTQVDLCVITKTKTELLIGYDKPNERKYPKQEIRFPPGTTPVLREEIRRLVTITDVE
UniProt V5BCU3, 67-292 T67A partner limits assumed: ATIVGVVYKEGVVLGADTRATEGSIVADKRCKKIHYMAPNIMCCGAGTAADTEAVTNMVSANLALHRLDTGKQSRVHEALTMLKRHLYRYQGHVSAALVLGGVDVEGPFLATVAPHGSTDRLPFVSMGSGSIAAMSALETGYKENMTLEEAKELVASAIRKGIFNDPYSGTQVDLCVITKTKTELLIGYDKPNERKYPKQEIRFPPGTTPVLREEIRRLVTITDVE
UniProt V5BHX1, 55-284 limits assumed: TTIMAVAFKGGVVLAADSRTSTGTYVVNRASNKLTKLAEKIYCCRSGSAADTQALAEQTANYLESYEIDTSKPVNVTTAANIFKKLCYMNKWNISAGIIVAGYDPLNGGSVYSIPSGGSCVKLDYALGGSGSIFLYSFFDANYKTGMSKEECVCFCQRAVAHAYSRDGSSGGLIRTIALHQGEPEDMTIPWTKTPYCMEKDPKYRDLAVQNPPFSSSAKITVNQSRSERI
UniProt V5BHX1, 55-284 T55A partner limits assumed: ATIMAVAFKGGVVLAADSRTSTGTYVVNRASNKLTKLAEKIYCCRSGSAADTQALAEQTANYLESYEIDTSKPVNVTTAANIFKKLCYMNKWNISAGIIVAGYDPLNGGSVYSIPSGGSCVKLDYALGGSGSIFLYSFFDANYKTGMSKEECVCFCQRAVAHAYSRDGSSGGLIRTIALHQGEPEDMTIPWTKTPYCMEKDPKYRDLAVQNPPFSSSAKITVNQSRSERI
UniProt V5BGL9, 1-205 partner: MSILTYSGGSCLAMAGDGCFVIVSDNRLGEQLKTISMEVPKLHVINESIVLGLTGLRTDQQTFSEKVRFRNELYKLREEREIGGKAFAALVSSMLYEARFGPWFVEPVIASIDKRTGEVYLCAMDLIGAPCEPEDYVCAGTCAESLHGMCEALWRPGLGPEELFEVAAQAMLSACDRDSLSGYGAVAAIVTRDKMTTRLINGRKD
UniProt A0A2V2VW62, 1-246 K245N partner: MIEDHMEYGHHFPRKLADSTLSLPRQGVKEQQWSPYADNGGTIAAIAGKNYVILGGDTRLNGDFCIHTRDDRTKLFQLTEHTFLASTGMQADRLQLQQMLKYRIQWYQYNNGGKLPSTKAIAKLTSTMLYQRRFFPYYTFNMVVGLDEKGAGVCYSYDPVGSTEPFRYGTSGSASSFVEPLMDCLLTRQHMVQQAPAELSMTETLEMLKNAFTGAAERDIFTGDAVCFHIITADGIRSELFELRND
UniProt A0A2V2VW62, 32-246 partner limits assumed: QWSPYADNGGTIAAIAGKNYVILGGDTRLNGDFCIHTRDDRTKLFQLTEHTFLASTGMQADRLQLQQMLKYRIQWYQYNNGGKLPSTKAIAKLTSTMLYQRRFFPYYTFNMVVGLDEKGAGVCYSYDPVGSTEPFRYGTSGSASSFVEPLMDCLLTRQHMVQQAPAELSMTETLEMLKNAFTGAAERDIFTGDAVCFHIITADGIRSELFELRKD

Tests used:
[1] = target: native T. cruzi proteasome (chymotrypsin-like activity, β5) (Trypanosoma cruzi, UniProt V5BU39+V5C017); test: Chymotrypsin-like activity assay (Proteasome-Glo), native T. cruzi proteasome; assay type: biochemical; settings: mean ± SD, N = 3; biphasic curves (a): pIC50 of most potent curve; 60 min preincubation
[2] = target: native T. cruzi proteasome (trypsin-like activity, β2) (Trypanosoma cruzi, UniProt V5BCU3); test: Trypsin-like activity assay (Proteasome-Glo), native T. cruzi proteasome; assay type: biochemical; settings: mean ± SD, N = 3
[3] = target: native T. cruzi proteasome (caspase-like activity, β1) (Trypanosoma cruzi, UniProt V5BHX1); test: Caspase-like activity assay (Proteasome-Glo), native T. cruzi proteasome; assay type: biochemical; settings: mean ± SD, N = 3
[4] = target: recombinant WT T. cruzi proteasome (caspase-like activity, β1) (Trypanosoma cruzi, UniProt V5BHX1); test: Caspase-like activity assay (Proteasome-Glo), recombinant wild-type T. cruzi proteasome; assay type: biochemical; settings: mean ± SD, N = 3
[5] = target: recombinant β4^R mutant T. cruzi proteasome (caspase-like activity) (Trypanosoma cruzi, UniProt V5BHX1); test: Caspase-like activity assay (Proteasome-Glo), recombinant β4^R mutant T. cruzi proteasome; assay type: biochemical; settings: mean ± SD, N = 3
[6] = target: recombinant WT T. cruzi proteasome (chymotrypsin-like activity, β5) (Trypanosoma cruzi, UniProt V5BU39+V5C017)
[7] = target: recombinant β4^R mutant T. cruzi proteasome (chymotrypsin-like activity) (Trypanosoma cruzi, UniProt V5BU39+V5C017, F24L/I29M); settings: mean ± SD, N = 3; biphasic curves (a): pIC50 of most potent curve
[8] = target: recombinant Δβ1Δβ2 mutant T. cruzi proteasome (chymotrypsin-like activity) (Trypanosoma cruzi, UniProt V5BU39+V5C017); settings: mean ± SD, N = 3
[9] = target: recombinant WT T. cruzi proteasome (trypsin-like activity, β2) (Trypanosoma cruzi, UniProt V5BCU3); settings: mean ± SD, N = 3
[10] = target: recombinant β4^R mutant T. cruzi proteasome (trypsin-like activity) (Trypanosoma cruzi, UniProt V5BCU3); settings: mean ± SD, N = 3

Compound: C[C@@H]1COCCN1c1cnc2nc(-c3cc(NC(=O)N4CC[C@@H](F)C4)ccc3F)ccn12
- pIC50, Chymotrypsin Assay, Native [1]: 8.18 ± 0.34
- pIC50, Trypsin Assay, Native [2]: <4.52
- pIC50, Caspase Assay, Native [3]: <4.52
- pIC50, Caspase Assay, Wild-type [4]: <4.52
- pIC50, Caspase Assay, β4^R mutant [5]: <4.52
- pIC50, Chymotrypsin Assay, Wild-type [6]: 7.75 ± 0.22
- pIC50, Chymotrypsin Assay, β4^R mutant [7]: 5.08 ± 0.27
- pIC50, Chymotrypsin Assay, Δβ1Δβ2 mutant [8]: 7.82 ± 0.21
- pIC50, Trypsin Assay, Wild-type [9]: <4.52
- pIC50, Trypsin Assay, β4^R mutant [10]: <4.52
